Experimental data: ChEMBL document CHEMBL3865796, “Novel (2,6-difluorophenyl)(2-(phenylamino)pyrimidin-4-yl)methanones with restricted conformation as potent non-nucleoside reverse transcriptase inhibitors against HIV-1” (Eur J Med Chem, 2016)

Assay: Inhibition of wild type HIV-1 3B reverse transcriptase infected in human MT4 cells assessed as inhibition of viral replication after 5 days by cell titer glo based luciferase reporter gene assay
Conditions: Human immunodeficiency virus 1, 3B, MT4, 120 h

Cc1cc(C#N)cc(C)c1Oc1nc(Nc2ccc(C#N)cc2)nc(N)c1Br [ETRAVIRINE]
EC50: 2 nM
